Source: ChEMBL document CHEMBL3988442, “University of Dundee, Small-Polar-MMV Screening Library” (2021).

Each number is a percent effect as filed. The controls that fix the scale are not given in the record; negative values are as filed. Many other results are left out here, so strong results are more common than in the screen. A dash means the value is not listed here; it may have been measured.

Mtb glucose medium: 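Growth of Mycobacterium tuberculosis over 3 days (7H9 medium with glucose and tyloxapol); the read-out is not stated. Tested at 500 µM. Higher reads as more growth inhibition (inferred: compounds with an IC50 in retests scored well above the rest). Of about 18,000 compounds tested this way, about 1,400 (7.9%) reached 50% or more in at least one test.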
Mtb cholesterol medium: 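Growth of Mycobacterium tuberculosis over 4 days (cholesterol / DPPC medium with tyloxapol); the read-out is not stated. Compounds at 500 µM. Higher reads as more growth inhibition (inferred: compounds with an IC50 in retests scored well above the rest). Of about 18,000 compounds tested this way, about 900 (5%) reached 50% or more in at least one test.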

CN(C)CCCOc1cnccc1CN gave Mtb cholesterol medium: -9.153%. Result for Nc1cc(-c2ccc(I)cc2)nn1CCO was Mtb glucose medium: 52.24%; Mtb cholesterol medium: -5.251%. CC(=O)c1cc(CN(C)CC2CC(=O)N(C)C2)n(C)c1 (stereo not drawn) gave Mtb glucose medium: -6.585%. Cc1ncc(S(C)(=O)=O)c(NC2(C(N)=O)CCCC2)n1 read Mtb glucose medium: 9.819%. Result for COC1CCN(C(=O)c2cnc3ccccn23)CC1 was Mtb cholesterol medium: 6.371%. For NCC1(N2CCN(c3ccccc3)CC2)CCOCC1 the result was Mtb cholesterol medium: 24.42%. Result for OCCNc1nc2ccccc2s1 was Mtb cholesterol medium: -7.277%.

Result for CN(Cc1c(F)cccc1Cl)C(=O)CNC(=O)C1CC1 was Mtb glucose medium: 63.31%; Mtb cholesterol medium: 55.69%. For Cn1nc2n(c1=O)CCN(Cc1ccc(Br)s1)CC2 the result was Mtb cholesterol medium: 71.51%. Cc1csc(CNC(=O)c2cc[nH]n2)n1 gave Mtb glucose medium: 1.911%. CN1CCCN(Cc2cc(F)cc(F)c2)CC1=O read Mtb glucose medium: 62.11%. With CNC(=O)Nc1ccc(OC)c(OCCOC)c1 the screen gave Mtb glucose medium: 57%; Mtb cholesterol medium: 57.14%. CC(C)n1cnnc1CC1CCCNC1 (stereo not drawn) gave Mtb glucose medium: -7.577%. For Cc1noc(C)c1CNC(=O)N(C)Cc1ccncc1 the result was Mtb glucose medium: -1.427%.

With Cn1ccnc1C(N)c1ccccc1F (stereo not drawn) the screen gave Mtb glucose medium: 5.255%. NC1CCN(C2CCSCC2)CC1 gave Mtb glucose medium: 8.135%. Cc1cc(NC(=O)CN(C)Cc2ccccc2)no1 read Mtb glucose medium: 76.08%; Mtb cholesterol medium: 77.85%. For NS(=O)(=O)c1ccccc1CNC(=O)C1CCCCO1 (stereo not drawn) the result was Mtb glucose medium: 17.25%. Result for NC(=O)C(N)c1ccc2c(c1)OCCO2 (stereo not drawn) was Mtb glucose medium: 96.45%; Mtb cholesterol medium: 63.41%. Result for Cc1ccc(S(=O)(=O)NCCCN)c2cccnc12 was Mtb glucose medium: 37.75%. CC(=O)N1CCC[C@H]1C(=O)NCCc1csc(C)n1 gave Mtb glucose medium: 55.92%; Mtb cholesterol medium: 52.3%.

CCC[C@H]1CN(c2nc(C)ccc2C(=O)O)C[C@@H]1N gave Mtb cholesterol medium: -4.985%. COC(=O)CSc1ccccc1C(=O)OC gave Mtb cholesterol medium: 27.52%. Result for CC(N)c1nc(-c2ccc(Br)cc2)c[nH]1 (stereo not drawn) was Mtb glucose medium: 91.69%; Mtb cholesterol medium: 101.6%. For CCc1ncc(C(=O)N2CCN(c3nccs3)CC2)s1 the result was Mtb glucose medium: 65.73%. CC1(C)CCCN1C(=O)NCCCF gave Mtb glucose medium: 4.603%. OCCCc1cccc(CCCO)c1 gave Mtb glucose medium: 18.56%. CCC(=O)N1CCN(c2ccc(C(C)=O)cc2F)CC1 gave Mtb cholesterol medium: 19.37%.

CN(CCn1cccn1)c1cc(Br)ccn1 gave Mtb glucose medium: 59.48%; Mtb cholesterol medium: 48.88%. For NCC(CO)Cc1ccsc1 (stereo not drawn) the result was Mtb glucose medium: 70.71%. O=C(CNC(=O)NCC1CC1)NCCc1ccccc1 read Mtb glucose medium: -1.924%. Result for NC(=O)CCn1ccc(N)n1 was Mtb cholesterol medium: 5.586%. With COCCc1noc([C@@H]2CN(CC(C)C)C[C@H]2CO)n1 the screen gave Mtb glucose medium: 2.889%. Result for CCCNC(=O)C1CCCNC1 (stereo not drawn) was Mtb cholesterol medium: -0.6842%. Cc1noc(C(C)N2CCN(C(C)C)CC2)n1 (stereo not drawn) gave Mtb glucose medium: 1.301%.

With FC(F)(F)Cn1cnc(C2COCCN2)n1 (stereo not drawn) the screen gave Mtb cholesterol medium: -15.3%. For NCc1ccccc1CN1CCCC1CO (stereo not drawn) the result was Mtb glucose medium: 2.002%; Mtb cholesterol medium: -2.963%. CCc1nc(C)c(C(=O)NCC2CCS(=O)(=O)CC2)o1 read Mtb cholesterol medium: 77.43%. CC1(C)CCC(CO)O1 (stereo not drawn) read Mtb glucose medium: 10.61%. For CN1CCC(C(=O)NCCc2cccc(Cl)c2)CC1=O (stereo not drawn) the result was Mtb glucose medium: 23.44%; Mtb cholesterol medium: -0.3935%. With NC(=O)C[C@@H](N)c1ccccc1Cl the screen gave Mtb glucose medium: 1.089%. CC(C)(C)OC(=O)NCC1CC(C(N)=O)=NO1 (stereo not drawn) gave Mtb cholesterol medium: -6.247%.

CC(C(=O)NC(N)=O)N(C)Cc1ccc(Br)o1 (stereo not drawn) gave Mtb glucose medium: 23.77%; Mtb cholesterol medium: -9.295%. Cc1cc(NC(=O)CS(=O)(=O)c2ccccc2)no1 gave Mtb glucose medium: 13.86%; Mtb cholesterol medium: 7.542%. Result for COCCC(=O)N(C)Cc1cccnc1OC was Mtb glucose medium: 30.38%.

For reference, 4 entries once more:

| SMILES | Mtb glucose medium | Mtb cholesterol medium |
|---|---|---|
| `NCc1ccccc1CN1CCCC1CO` (stereo not drawn) | 2.002 | -2.963 |
| `CCc1ncc(C(=O)N2CCN(c3nccs3)CC2)s1` | 65.73 | - |
| `CCC(=O)N1CCN(c2ccc(C(C)=O)cc2F)CC1` | - | 19.37 |
| `NCC(CO)Cc1ccsc1` (stereo not drawn) | 70.71 | - |